Measured values from several laboratories, pooled; numbers as filed in NIAID ChemDB.

All rows: cytotoxicity tests; cells: HepG2.2.15; endpoint: CC50

Conditions beyond the fields shown may differ between rows. An empty or dashed field is not shown. CCn: concentration that lowers growth or viability of the cells by n%.

smiles | read by | value
CCOC(=O)C1=C(CN2CC(F)(F)[C@@H]3[C@H]2CON3C[C@H](O)[C@H](CC)C(=O)O)NC(c2nccs2)=N[C@H]1c1cccc(F)c1C | WST / absorbance | >100 µM
C[C@H](C[C@H](OC(=O)c1ccc(Cl)cc1Cl)[C@@H](OC(=O)c1ccc(Cl)cc1Cl)C(C)(C)O)C1=C2C[C@H](OC(=O)c3ccc(Cl)cc3Cl)[C@H]3[C@@]4(C)CCC(=O)C(C)(C)[C@@H]4CC[C@]3(C)[C@@]2(C)CC1 |  | >1200 µM
C[C@H](C[C@H](OC(=O)C1CC1)[C@@H](OC(=O)C1CC1)C(C)(C)OC(=O)C1CC1)C1=C2C[C@H](OC(=O)C3CC3)[C@H]3[C@@]4(C)CCC(=O)C(C)(C)[C@@H]4CC[C@]3(C)[C@@]2(C)CC1 |  | >2100 µM
CCCCCCCCOC(=O)[C@@]1(C)CC[C@]2(C)CC[C@]3(C)C(=CC(=O)[C@@H]4[C@@]5(C)CC[C@H](O)C(C)(C)[C@@H]5CC[C@]43C)[C@@H]2C1 |  | >1450 µM
COC(=O)C1=C(CN2CCN(C(=O)OC)CC2)NC(c2ncc(F)cc2F)=NC1c1ccc(Cl)cc1Cl |  | 3.5 µM
C[C@H](C[C@H](OC(=O)c1ccccc1)[C@@H](OC(=O)c1ccccc1)C(C)(C)OC(=O)c1ccccc1)C1=C2C[C@H](OC(=O)c3ccccc3)[C@H]3[C@@]4(C)CCC(=O)C(C)(C)[C@@H]4CC[C@]3(C)[C@@]2(C)CC1 |  | >1400 µM
COC(=O)C1=C(CN2CCN(C(=O)OC(C)(C)C)CC2)NC(c2ncc(F)cc2F)=N[C@H]1c1ccc(F)cc1Cl |  | 16 µM
ClCCc1c(Cl)nc2ccc(Cl)cc2c1-c1ccccc1Cl |  | >1400 µM
Cc1cc(NC(=O)c2c(C(C)C)noc2C)ccc1F |  | >100 µM
COC(=O)C1=C(CN2CCN(c3ncc(F)cn3)CC2)NC(c2ncc(F)cc2F)=N[C@H]1c1ccc(F)cc1Cl |  | >5 µM
CCOCC(=O)O[C@H]1C[C@@H]2C(=CC[C@@H]3[C@@]2(C)C(=O)C[C@]2(C)C([C@@](C)(O)C(=O)CCC(C)(C)OC(=O)COCC)[C@H](OC(=O)COCC)C[C@@]32C)C(C)(C)[C@@H]1OC(=O)COCC |  | >1450 µM
COC(=O)C1=C(CN2[C@@H]3CC[C@@H]2COC3)NC(c2ncc(F)cc2F)=N[C@H]1c1ccc(F)cc1Cl |  | 9 µM
C=C(C)[C@H](OC(=O)COC(C)=O)[C@H](C[C@@H](C)C1=C2C[C@H](OC(=O)COC(C)=O)[C@H]3[C@@]4(C)CCC(=O)C(C)(C)[C@@H]4CC[C@]3(C)[C@@]2(C)CC1)OC(=O)COC(C)=O |  | <32 µM
CCOC(=O)C1=C(CN2CC(F)(F)[C@@H]3[C@H]2CON3C[C@@H](OC)C(C)(C)C(=O)O)NC(c2nccs2)=N[C@H]1c1cccc(F)c1Cl | WST / absorbance | >50 µM
O=c1[nH]c2ccc(Cl)cc2c(-c2ccccc2Cl)c1CCO |  | 387.5 µM
CCC(=O)O[C@@H](C[C@@H](C)C1=C2C[C@H](OC(=O)CC)[C@H]3[C@@]4(C)CCC(=O)C(C)(C)[C@@H]4CC[C@]3(C)[C@@]2(C)CC1)[C@@H](OC(=O)CC)C(C)(C)OC(=O)CC |  | >1900 µM
CS(=O)(=O)OCCc1c(Cl)nc2ccc(Cl)cc2c1-c1ccccc1Cl |  | 881.7 µM
COCC(=O)O[C@@H](C[C@@H](C)C1=C2C[C@H](OC(=O)COC)[C@H]3[C@@]4(C)CCC(=O)C(C)(C)[C@@H]4CC[C@]3(C)[C@@]2(C)CC1)[C@@H](OC(=O)COC)C(C)(C)OC(=O)COC |  | >2500 µM
COC(=O)C1=C(CN2CC3CC[C@H](C2)O3)NC(c2ncc(F)cc2F)=N[C@H]1c1ccc(F)cc1Cl |  | 4 µM
CCOC(=O)C1=C(CN2CC(F)(F)[C@@H]3[C@H]2CON3CC[C@@](C)(O)C(=O)O)NC(c2nccs2)=N[C@H]1c1cccc(F)c1C | WST / absorbance | >100 µM
Cc1cc(NC(=O)c2cc(-c3ccccc3)nc3ccccc23)ccc1F |  | >100 µM
CC(=O)O[C@H]1C[C@@H]2C(=CC[C@@H]3[C@@]2(C)C(=O)C[C@]2(C)C([C@@](C)(O)C(=O)CCC(C)(C)OC(C)=O)[C@H](OC(C)=O)C[C@@]32C)C(C)(C)[C@@H]1OC(C)=O |  | >807.1 µM
CC(C)CC(=O)O[C@@H](C[C@@H](C)C1=C2C[C@H](OC(=O)CC(C)C)[C@H]3[C@@]4(C)CCC(=O)C(C)(C)[C@@H]4CC[C@]3(C)[C@@]2(C)CC1)[C@@H](OC(=O)CC(C)C)C(C)(C)O |  | >1200 µM
CC1(C)[C@@H](O)CC[C@]2(C)[C@H]3C[C@H]4O[C@]45[C@@H]4C[C@@](C)(C(=O)O)CC[C@]4(C)CC[C@@]5(C)[C@]3(C)CC[C@@H]12 |  | 35.71 µM
CCOCC(=O)OC(C)(C)[C@H](OC(C)=O)[C@H](C[C@@H](C)C1=C2C[C@H](OC(C)=O)[C@H]3[C@@]4(C)CCC(=O)C(C)(C)[C@@H]4CC[C@]3(C)[C@@]2(C)CC1)OC(C)=O |  | >2800 µM
COc1cc(/C=C/C(=O)O[C@H]2CC[C@]3(C)[C@H]4CC=C5[C@@H]6C[C@@](C)(C(=O)OCc7ccc(Br)cc7F)CC[C@]6(C)CC[C@@]5(C)[C@]4(C)CC[C@H]3C2(C)C)cc(OC)c1OC |  | 935 µM
CC(=O)OC(C)(C)CCC(=O)[C@](C)(O)C1[C@H](O)C[C@@]2(C)[C@@H]3CC=C4[C@@H](C[C@H](O)[C@@H](O)C4(C)C)[C@]3(C)C(=O)C[C@]12C |  | 66.2 µM
COc1cccc(/C=C/C(=O)O[C@H]2CC[C@]3(C)[C@H]4CC=C5[C@@H]6C[C@@](C)(C(=O)OCc7ccc(C(F)(F)F)cc7)CC[C@]6(C)CC[C@@]5(C)[C@]4(C)CC[C@H]3C2(C)C)c1 |  | >899 µM
C[C@H](C[C@H](OC(=O)c1ccc(Cl)cc1)[C@@H](OC(=O)c1ccc(Cl)cc1)C(C)(C)O)C1=C2C[C@H](OC(=O)c3ccc(Cl)cc3)[C@H]3[C@@]4(C)CCC(=O)C(C)(C)[C@@H]4CC[C@]3(C)[C@@]2(C)CC1 |  | >900 µM
CC1(C)[C@@H](O)CC[C@]2(C)[C@H]3C(=O)C=C4[C@@H]5C[C@@](C)(C(=O)OCCO)CC[C@]5(C)CC[C@@]4(C)[C@]3(C)CC[C@@H]12 |  | 380 µM
CC(=O)OCCc1c(Cl)nc2ccc(Cl)cc2c1-c1ccccc1Cl |  | 116.4 µM
C[C@H](C[C@H](OC(=O)CN1C(=O)c2ccccc2C1=O)[C@@H](OC(=O)CN1C(=O)c2ccccc2C1=O)C(C)(C)OC(=O)CN1C(=O)c2ccccc2C1=O)C1=C2C[C@H](OC(=O)CN3C(=O)c4ccccc4C3=O)[C@H]3[C@@]4(C)CCC(=O)C(C)(C)[C@@H]4CC[C@]3(C)[C@@]2(C)CC1 |  | >1300 µM
CCOC(=O)C1=C(CN2CC(F)(F)[C@@H]3[C@H]2CON3CC[C@](C)(O)C(=O)O)NC(c2nccs2)=N[C@H]1c1ccc(F)c(F)c1C | WST / absorbance | >100 µM
CC(C)(O)CCC(=O)[C@](C)(O)C1[C@H](O)C[C@@]2(C)[C@@H]3CC=C4[C@@H](C[C@H](O)[C@@H](O)C4(C)C)[C@]3(C)C(=O)C[C@]12C |  | 60.6 µM

A second listing of 2 rows from above:

smiles | read by | value
Cc1cc(NC(=O)c2c(C(C)C)noc2C)ccc1F |  | >100 µM
CC1(C)[C@@H](O)CC[C@]2(C)[C@H]3C[C@H]4O[C@]45[C@@H]4C[C@@](C)(C(=O)O)CC[C@]4(C)CC[C@@]5(C)[C@]3(C)CC[C@@H]12 |  | 35.71 µM